Anti-infective test results gathered from many reports (values: NIAID ChemDB through PubChem).

Common to all: host cell toxicity; cell line: MDBK; read-out: CC50

An empty or dashed field is not shown.

| SMILES | method | result |
|---|---|---|
| CC(=O)OC1CC[C@@]23Oc4c(c(O)cc5c4C(=O)NC5=O)C[C@]2(C)[C@@H](C)CC[C@H]3C1(C)C |  | 28 µM |
| c1ccc(CCOn2ccc3nc(-c4ccccc4)nc-3c2)cc1 |  | >100 µg/mL |
| CC(=O)O[C@@H]1[C@H](OC(C)=O)[C@@H](CO)O[C@H]1n1cc(/C(Cl)=C\I)c(=O)[nH]c1=O | neutral red | >100 µM |
| CCNC(=S)N=Nc1c(O)[nH]c2ccc([N+](=O)[O-])cc12 |  | >50 µg/mL |
| C[C@H]1CC[C@H]2C(C)(C)C(=O)CC[C@]23Oc2c(c(O)cc4c2C(=O)NC4=O)C[C@]13C |  | 94 µM |
| CC1(C)[C@H]2CC[C@]1(C)C(=O)C2 | MTT | 4420 µg/mL |
| O=C1Nc2ccc([N+](=O)[O-])cc2/C1=N/N=C1/SCC(=O)N1c1ccc(F)cc1 |  | 9 µg/mL |
| N#Cc1ccc(Cn2ccc3nc(-c4ccccc4)nc-3c2)cc1 |  | 22 µg/mL |
| C[C@H]1CC[C@H]2C(C)(C)[C@@H](O)CC[C@]23Oc2c(c(OCc4ccccc4)cc4c2CNC4=O)C[C@]13C |  | 16 µM |
| Fc1cccc(F)c1Cn1ccc2nc(-c3c(F)cccc3F)nc-2c1 |  | >83.3 µg/mL |
| CCOC(=O)c1c(Cc2ccc(O)cc2)n(C)c2cc(Br)c3c(c12)CN(C)CO3 | ATP | 71.1 µM |
| C[C@H]1CC[C@H]2C(C)(C)[C@@H](O)CC[C@]23Oc2c(c(OCC(=O)O)cc4c2CNC4=O)C[C@]13C |  | >225 µM |
| CN1Cc2c(O)c(-c3cccnc3)cc3c2c(c(CSc2ccccc2)n3C)C1=O | ATP | 49 µM |
| O=[N+]([O-])c1ccc2[nH]c(O)c(N=NC(=S)Nc3ccc(Br)cc3)c2c1 |  | 17 µg/mL |
| CC(=O)O[C@@H]1C[C@@H](CO)O[C@H]1n1cc(C#CI)c(=O)[nH]c1=O | neutral red | >100 µM |
| CN(C)c1cccc(-c2nc3ccn(Cc4ccc(Br)cc4)cc-3n2)c1 |  | 8.1 µg/mL |
| O=[N+]([O-])c1ccc2[nH]c(O)c(N=NC(=S)NC3CCCCC3)c2c1 |  | 5 µg/mL |
| CC(=O)O[C@@H]1C[C@@H](CO)O[C@H]1n1cc(/C(I)=C\I)c(=O)[nH]c1=O | neutral red | >100 µM |
| CCOC(=O)c1c(CSc2ccccc2)n(C)c2cc(Br)c(O)c(CN(N3CCN(CCO)CC3)N3CCN(CCO)CC3)c12 | ATP | 52.3 µM |
| CC(C)(C)CC(C)(C)NC(=O)[C@@H]1[C@H](O)[C@@H](O)CN1C(=O)c1ccccc1 | visual reading | >300 µM |
| CC(=O)O[C@@H]1[C@H](OC(C)=O)[C@@H](CO)O[C@H]1n1cc(C#CI)c(=O)[nH]c1=O | neutral red | >100 µM |
| C=CCNC(=S)N=Nc1c(O)[nH]c2ccc([N+](=O)[O-])cc12 |  | >50 µg/mL |
| Fc1cccc(-c2nc3ccn(Cc4ccc(F)cc4F)cc-3n2)c1 |  | 20 µg/mL |
| CCOC(=O)c1c(CSc2ccccn2)n(C)c2cc(Br)c3c(c12)CN(C)CO3 | ATP | 43.9 µM |
| O=C1Nc2ccc([N+](=O)[O-])cc2/C1=N/N=C1/SCC(=O)N1c1ccccc1 |  | >50 µg/mL |
| CC(=O)Oc1cc2c(c3c1C[C@]1(C)[C@@H](C)CC[C@H]4C(C)(C)[C@@H](OC(C)=O)CC[C@]41O3)CNC2=O |  | 40 µM |
| CCOC(=O)c1c(CS(=O)(=O)c2ccccc2)n(C)c2cc(-c3cccnc3)c(O)c(CN(C)C)c12 | ATP | 28.1 µM |

For reference, 4 entries again:

SMILES | method | result
CCOC(=O)c1c(Cc2ccc(O)cc2)n(C)c2cc(Br)c3c(c12)CN(C)CO3 | ATP | 71.1 µM
Fc1cccc(F)c1Cn1ccc2nc(-c3c(F)cccc3F)nc-2c1 |  | >83.3 µg/mL
C=CCNC(=S)N=Nc1c(O)[nH]c2ccc([N+](=O)[O-])cc12 |  | >50 µg/mL
CC(=O)O[C@@H]1[C@H](OC(C)=O)[C@@H](CO)O[C@H]1n1cc(/C(Cl)=C\I)c(=O)[nH]c1=O | neutral red | >100 µM

Rows are shuffled and stem from different studies. CCn: concentration that lowers growth or viability of the cells by n%.